Data set [1] deals with L. infantum IMT151 promastigotes. Nature of the data set: Promastigotes susceptibility assay (MTT), L. infantum. In kind it is cell-based, Leishmania infantum. The conditions noted are these: for SI (J774A.1), L. infantum promastigotes: CC50 in J774A.1 / IC50 of promastigotes; for SI (THP-1), L. infantum promastigotes: CC50 in THP-1 / IC50 of promastigotes; for SI, human cell line (THP-1), promastigotes: text bound, both Leishmania species. The procedure:
(§1) Promastigote forms of strains of L. infantum (MHOM/PT/1988/IMT151) and L. donovani (MHOM/BD/2006/BD14) were cultured at 24 °C ± 1 °C in M199 medium (Sigma) supplemented with 20% foetal bovine serum (FBS, Sigma) and 1% penicillin-streptomycin (Sigma). L. infantum strain belongs to IHMT, Portugal cryobank collection and the L. donovani strain was kindly provided by Dr. Katrin Kuhls, Technical University of Applied Sciences Wildau, Germany. Promastigotes used for the experiments had 7 to 12 in vitro passages in culture after isolation from mice, in order to keep virulence, and were used when the stationary phase of growth was reached (day 5 to 6), corresponding to the highest promastigotes density.
(§2) For the determination of the antileishmanial activity and IC50, promastigotes of L. infantum and L. donovani were plated in 96-well flat bottom culture plates at a concentration of 5 × 10^6 parasites/mL and incubated with six serial concentrations of each compound (Table 3), in four replicates, including the control drugs, amphotericin B, miltefosine and pentamidine. One untreated control (parasites with M199 medium plus 0.5% DMSO as vehicle solution) and one blank (M199 medium alone) were also plated out in quadruplicate. After 48 h incubation at 24 °C ± 1 °C, the inhibitory activity of the compounds was evaluated using the MTT, as previously described, with an additional 4 h incubation at 36 °C. Results were expressed in terms of percentage of parasite viability relative to nontreated control and IC50 was calculated fitting the data as a non-linear regression with variable slope using a dose-response inhibitory model, in the GraphPad Prism V 8.0 program. Each compound was tested in three independent assays. […]

Data set [2] deals with L. donovani BD14 promastigotes. Nature of the data set: Promastigotes susceptibility assay (MTT), L. donovani. The following applies: for SI (J774A.1), L. donovani promastigotes: CC50 in J774A.1 / IC50 of promastigotes; for SI (THP-1), L. donovani promastigotes: CC50 in THP-1 / IC50 of promastigotes. The class given is cell-based, Leishmania donovani. The procedure:
as §1, §2

Data set [3] has as its system L. infantum IMT151 intracellular amastigotes. Nature of the data set: Intracellular amastigotes assay in J774A.1 macrophages, L. infantum. The following applies: for SI (J774A.1), L. infantum amastigotes: CC50 in J774A.1 / IC50 of amastigotes; for SI (THP1), L. infantum amastigotes: CC50 in THP-1 / IC50 of amastigotes. The class given is cell-based, Leishmania infantum. How it is done: (§3) The intracellular assay using the macrophage J774A.1 cell line was performed with the compounds that presented best SI on the promastigote’s susceptibility assay. J774A.1 cells were adjusted to 2.5 × 10^5 cells/mL in supplemented DMEM medium. 200 μL/well of the cell suspension was placed in 16 well Lab Tek culture glass slides (Nunc), and incubated at 37 °C ± 1 °C, 5% CO2, for 3 h, to enable the cells to adhere to the slides. After a washing step with DMEM to discard non-attached cells, the cells were infected with 2.5 × 10^6 cells/mL promastigotes in a 10:1 parasite-host cell proportion for 24 h. Compounds and control drugs were added in two replicates of six serial concentrations (Table 3). As negative control, macrophages were cultivated in medium and DMSO, as vehicle solution (0.5% v/v). Slides were incubated for 48 h at the same temperature. After a washing step with 1× PBS (Sigma), slides were fixed and stained, and the infection index was calculated according to [34] by counting the number of intracellular amastigotes per 100 macrophages, in treated and untreated cells. Two independent experiments were performed to determine the amastigotes IC50 of each compound, which was calculated by fitting the data as a non-linear regression with variable slope using a dose-response inhibitory model, in the GraphPad Prism V 8.0 program. SI was determined as described above.

Data set [4] has as its system L. donovani BD14 intracellular amastigotes. Nature of the data set: Intracellular amastigotes assay in J774A.1 macrophages, L. donovani. In kind it is cell-based, Leishmania donovani. The conditions noted are these: for SI (J774A.1), L. donovani amastigotes: CC50 in J774A.1 / IC50 of amastigotes; for SI (THP-1), L. donovani amastigotes: CC50 in THP-1 / IC50 of amastigotes. The procedure:
as §3

Take `CCOC(=O)C1CCC2(CC1)OOC1(OO2)C2CC3CC(C2)CC1C3` (centres unmarked) [LC138]: in data set [1], the “SI (J774A.1), L. infantum promastigotes” value came to 4.2; the “SI (THP-1), L. infantum promastigotes” value amounted to 22.6; the “SI, human cell line (THP-1), promastigotes” value (shortened to “SI, human cell line”) is recorded as “higher than 7”. Further, in data set [2], the “SI (J774A.1), L. donovani promastigotes” value is 2.2 and the “SI (THP-1), L. donovani promastigotes” value was found to be 11.9. Also, in data set [3], the “SI (J774A.1), L. infantum amastigotes” value is listed as 22.1 and the “SI (THP1), L. infantum amastigotes” value is on record as 118.6. For the same compound, in data set [4], the “SI (J774A.1), L. donovani amastigotes” value came out at 1.2 and the “SI (THP-1), L. donovani amastigotes” value is 10.6.
In the case of `C1C2CC3CC1CC(C2)C31OOC2(CCC(Nc3nnn[nH]3)CC2)OO1` (centres unmarked) [LC163], in data set [1], the “SI (J774A.1), L. infantum promastigotes” value amounted to 2.5 and the “SI (THP-1), L. infantum promastigotes” value is listed as 4.0. Moreover, in data set [2], the “SI (J774A.1), L. donovani promastigotes” value was found to be 0.9 and the “SI (THP-1), L. donovani promastigotes” value is 1.4.
Turning to `Cn1nnc(NCC2CCC3(CC2)OOC2(O3)C3CC4CC(C3)CC2C4)n1` (centres unmarked) [LC131], in data set [1], the “SI (J774A.1), L. infantum promastigotes” value was found to be 0.1 and the “SI (THP-1), L. infantum promastigotes” value is 0.2. Further, in data set [2], the “SI (J774A.1), L. donovani promastigotes” value came to 0.3 and the “SI (THP-1), L. donovani promastigotes” value is reported as 0.6.
`c1ccc(-n2nnnc2OCC2CCC3(CC2)OOC2(O3)C3CC4CC(C3)CC2C4)cc1` (centres unmarked) [LC132]: in data set [1], the “SI (J774A.1), L. infantum promastigotes” value was 3.5; the “SI (THP-1), L. infantum promastigotes” value is 7.7; the “SI, human cell line” value is recorded as “higher than 7”. Also, in data set [2], the “SI (J774A.1), L. donovani promastigotes” value was found to be 3.2 and the “SI (THP-1), L. donovani promastigotes” value stood at 7.0. In data set [3], the “SI (J774A.1), L. infantum amastigotes” value came to 3.5 and the “SI (THP1), L. infantum amastigotes” value is recorded as 7.6. In addition, the “SI (J774A.1), L. donovani amastigotes” value in data set [4] was 4.9.
Turning to `OCC1CCC2(CC1)OOC1(O2)C2CC3CC(C2)CC1C3` (centres unmarked) [LC93], in data set [1], the “SI (J774A.1), L. infantum promastigotes” value worked out at 0.0 and the “SI (THP-1), L. infantum promastigotes” value worked out at 0.4. Besides, in data set [2], the “SI (J774A.1), L. donovani promastigotes” value amounted to 0.1 and the “SI (THP-1), L. donovani promastigotes” value stood at 1.2.
In the case of `O=S1(=O)N=C(OCC2CCC3(CC2)OOC2(O3)C3CC4CC(C3)CC2C4)c2ccccc21` (centres unmarked) [LC129], in data set [1], the “SI (J774A.1), L. infantum promastigotes” value came out at 1.2 and the “SI (THP-1), L. infantum promastigotes” value was found to be 1.3. In addition, in data set [2], the “SI (J774A.1), L. donovani promastigotes” value is listed as 1.3 and the “SI (THP-1), L. donovani promastigotes” value came to 1.5.
Regarding `OCC1CCC2(CC1)OOC1(OO2)C2CC3CC(C2)CC1C3` (centres unmarked) [LC146], in data set [1], the “SI (J774A.1), L. infantum promastigotes” value turned out to be 3.0 and the “SI (THP-1), L. infantum promastigotes” value was 6.6. Further, in data set [2], the “SI (J774A.1), L. donovani promastigotes” value came to 1.8 and the “SI (THP-1), L. donovani promastigotes” value was determined as 4.1.
Taken in the same sequence, the figures for `O=C1CCC2(CC1)OOC1(OO2)C2CC3CC(C2)CC1C3` [LC140] were 2.6, 5.4, 1.5 and 3.0.
`C1C2CC3CC1CC(C2)C31OOC2(CCC(Nc3nnn[nH]3)CC2)O1` (centres unmarked) [LC136, N-1H-1,2,3,4-Tetraazol-5-yl-dispiro[cyclohexane-1,3'-[1,2,4]trioxolane-5',2''-tricyclo[3.3.1.13,7]decan]-4-ylamine]: in data set [1], the “SI (J774A.1), L. infantum promastigotes” value is reported as 0.3 and the “SI (THP-1), L. infantum promastigotes” value worked out at 0.6. Moreover, in data set [2], the “SI (J774A.1), L. donovani promastigotes” value amounted to 0.5 and the “SI (THP-1), L. donovani promastigotes” value is reported as 1.1.
Take `C[C@@H]1[C@H](O)[C@@H](C)/C=C/C=C/C=C/C=C/C=C/C=C/C=C/[C@H](O[C@@H]2O[C@H](C)[C@@H](O)[C@H](N)[C@@H]2O)C[C@@H]2O[C@](O)(C[C@@H](O)C[C@@H](O)[C@H](O)CC[C@@H](O)C[C@@H](O)CC(=O)O[C@H]1C)C[C@H](O)[C@H]2C(=O)O` [AmB, amphotericin B, reference compound]: in data set [1], the “SI (J774A.1), L. infantum promastigotes” value was 467.7 and the “SI (THP-1), L. infantum promastigotes” value is 151.0. Also, in data set [2], the “SI (J774A.1), L. donovani promastigotes” value was 282.5 and the “SI (THP-1), L. donovani promastigotes” value was determined as 91.2. Also, the “SI (J774A.1), L. infantum amastigotes” value in data set [3] is recorded as 898.4. Besides, in data set [4], the “SI (J774A.1), L. donovani amastigotes” value was found to be 898.4 and the “SI (THP-1), L. donovani amastigotes” value is reported as 40.4.
Take `C1CCC2(CC1)OOC1(OO2)C2CC3CC(C2)CC1C3` [LC137]: the “SI, human cell line” value in data set [1] is on record as “higher than 7”. For the same compound, in data set [4], the “SI (THP-1), L. donovani amastigotes” value stood at 7.5.
On to `CCCCCCCCCCCCCCCCOP(=O)([O-])OCC[N+](C)(C)C` [Miltefosine, reference compound], for which, in data set [1], the “SI (J774A.1), L. infantum promastigotes” value stood at 0.6 and the “SI (THP-1), L. infantum promastigotes” value is 0.7. Moreover, in data set [2], the “SI (J774A.1), L. donovani promastigotes” value was 3.9 and the “SI (THP-1), L. donovani promastigotes” value was determined as 4.1. In data set [3], the “SI (J774A.1), L. infantum amastigotes” value was determined as 5.6 and the “SI (THP1), L. infantum amastigotes” value came out at 6.0. In data set [4], the “SI (J774A.1), L. donovani amastigotes” value was found to be 7.1 and the “SI (THP-1), L. donovani amastigotes” value is reported as 6.7.

The record behind these values is publication PMC9024893, “1,2,4-Trioxolane and 1,2,4,5-Tetraoxane Endoperoxides against Old-World Leishmania Parasites: In Vitro Activity and Mode of Action” (Pharmaceuticals, 2022).
